Publication PMC4072758, “Vimentin Mediates Uptake of C3 Exoenzyme” (PLoS ONE, 2014)

How the values were obtained:
[1] = molecular target: vimentin rod domain (amino acids 102 to 410), His-tagged (mouse, UniProt P20152 102-410); assay: far-Western, overlay or dot blot
[2] = molecular target: T1, recombinant His-tagged mouse vimentin (full length) (mouse, UniProt P20152 1-466); assay: co-IP
T1 construct: also called full length vimentin; vimentin (whole protein)

B1: Clostridium botulinum C3 exoenzyme (enzyme)
chain: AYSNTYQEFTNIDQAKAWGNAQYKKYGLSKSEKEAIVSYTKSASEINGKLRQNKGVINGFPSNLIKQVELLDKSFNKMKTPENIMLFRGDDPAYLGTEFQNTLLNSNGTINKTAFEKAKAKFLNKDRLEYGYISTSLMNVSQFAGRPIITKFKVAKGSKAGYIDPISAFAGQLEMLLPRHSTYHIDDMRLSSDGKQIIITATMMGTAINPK
What does the source list for B1?
binding result [1]: binds; binding result [2]: binds
